Assay results from patent publication US12145941B2, “Heterocyclic antiviral agents” (ENANTA PHARMACEUTICALS, INC., priority 2021, dated 2024).

Biological target: SARS-CoV-2 3CL-protease (Severe acute respiratory syndrome coronavirus 2 (2019-nCoV) (SARS-CoV-2), UniProt P0DTD1)
Test: SARS-CoV-2 3C-like (3CL) protease fluorescence assay (FRET)
Assay type: biochemical
Settings: recombinant SARS-CoV-2 3CL-protease 10 nM, 30 min preincubation at RT, TAMRA-SITSAVLQSGFRKMK-Dabcyl-OH substrate, run in duplicate
Experimental: SARS-CoV-2 3C-like (3CL) protease fluorescence assay (FRET): Recombinant SARS-CoV-2 3CL-protease was expressed and purified. TAMRA-SITSAVLQSGFRKMK-Dabcyl-OH peptide 3CLpro substrate was synthesized. Black, low volume, round-bottom, 384 well microplates were used. In a typical assay, 0.85 μL of test compound was dissolved in DMSO then incubated with SARS-CoV-2 3CL-protease (10 nM) in 10 μL assay buffer (50 mM HEPES [pH 7.5], 1 mM DTT, 0.01% BSA, 0.01% Triton-X 100) for 30 min at RT. Next, 10 μL of 3CL-protease substrate (40 μM) in assay buffer was added and the assays were monitored continuously for 1 h in an Envision multimode plate reader operating in fluorescence kinetics mode with excitation at 540 nm and emission at 580 nm at RT. No compound (DMSO only) and no enzyme controls were routinely included in each plate. All experiments were run in duplicate. Data Analysis: SARS-CoV-2 3CL-protease enzyme activity was measured as initial velocity of the linear phase (RFU/s) and normalized to controlled samples DMSO (100% activity) and no enzyme (0% activity) to determine percent residual activity at various concentrations of test compounds (0-10 μM). Data were fitted to normalized activity (variable slope) versus concentration fit in GraphPad Prism 7 to determine IC50. All experiments were run in duplicate, and IC50 ranges are reported as follows: A<0.1 μM; B 0.1-1 μM; C>1 μM.

In the case of “(3R,5'S)-1′-((S)-4-methyl-2-(2-oxo-3-(1H-pyrazol-3-yl) yridine-1(2H)-yl)pentanoyl)-2-oxospiro[indoline-3,3′-pyrrolidine]-5′-carbonitrile [Compound 25-a]”, the IC50 is reported as < 100 nM.
